# pIC50: −log10 of the molar value.
# Biological target: Replicase polyprotein 1ab (Severe acute respiratory syndrome coronavirus 2, UniProt P0DTD1)
# Experiment: In Vitro Inhibition of SARS NSP14/NSP10 Exonuclease Activity
structure (smiles),measurement,value
CC(C)=CCOc1ccc(/C=C/C(=O)c2ccc(OCC=C(C)C)cc2OCC(=O)O)cc1,pIC50,5.22

# Source: BindingDB's records for US20250213569
